Compound potency records, mixed from different reports. Data source: NIAID ChemDB in PubChem.

An empty or dashed field is not shown.

compound	method	measure	agent	strain	dose	kind	target	result
CC(C)(C)c1ccc(-c2cncc(N3CCN(c4cnccn4)CC3)n2)cc1	-	inhibition	Cytomegalovirus	-	10 µM	target	UL97 kinase	>15%
CC(C)=NNC(=O)CNc1cccc(C(F)(F)F)c1	BACTEC	MIC bound	Mycobacterium tuberculosis	H37Rv	-	culture	-	>12.5 µg/mL
Nc1cc2oc3ccccc3c2cc1N	-	MIC	Mycobacterium tuberculosis	H37Rv	-	culture	-	25 µg/mL
Cn1c(=O)c2c(ncn2CC[n+]2cccc(C(N)=O)c2)n(C)c1=O.[Cl-]	BACTEC	inhibition	Mycobacterium tuberculosis	H37Rv	12.5 µg/mL	culture	-	21%
O=c1cc(CCl)c2cccc(Cl)c2[nH]1	-	MIC	Mycobacterium tuberculosis	H37Rv	-	culture	-	>100 µg/mL
COc1cccc2c1C(=O)c1c(O)c3c(c(O)c1C2=O)C[C@@](O)(/C(C)=N/NC(=O)c1cccc([N+](=O)[O-])c1)C[C@H]3O[C@H]1CC(N)[C@H](O)[C@H](C)O1	-	MIC	Mycobacterium tuberculosis	KM-R	-	culture	-	12.5 µg/mL
CCN(CCO)c1ccccc1	-	MIC	Mycobacterium tuberculosis	H37Rv	-	culture	-	>100 µg/mL
CCC(/C(=N/Nc1c(Cl)cc(Cl)cc1Cl)c1ccccc1)n1ccnc1C	resazurin	inhibition	Mycobacterium tuberculosis	H37Rv	6.25 µg/mL	culture	-	38%
Cc1cccc(-c2cncc(N3CCN(c4ccccc4)CC3)n2)c1	-	IC50	Cytomegalovirus	-	-	target	UL97 kinase	<100 µM
CC1CCC2(CCCO2)O1	BACTEC	MIC bound	Mycobacterium tuberculosis	H37Rv	-	culture	-	>12.5 µg/mL
CC(=O)c1ccccc1-c1cncc(N2CCN(c3cccc(Cl)c3)CC2)n1	-	inhibition	Cytomegalovirus	-	10 µM	target	UL97 kinase	>15%
CC(=O)Nc1ccc(/C=N/NC(N)=S)cc1	-	MIC	Mycobacterium tuberculosis	H37Rv	-	culture	-	3.12 µg/mL
CC(=O)Oc1c(C)c2c(O)c3c1C1=C(OCOC1=C(C)C3=O)/C(C)=C\C(C)(O)C(O)C(C)C(O)C1C(=O)OC(C(C)/C=C\C=C(\C)C(=O)N2)C(C)C1O	BACTEC	inhibition	Mycobacterium tuberculosis	H37Rv	12.5 µg/mL	culture	-	34%
NNC(=O)c1ccccc1NC(=O)c1ccccc1	-	MIC	Mycobacterium tuberculosis	H37Rv	-	culture	-	>100 µg/mL
COc1ccc(-c2cncc(N3CCN(c4ccncc4)CC3)n2)cc1	-	IC50	Cytomegalovirus	-	-	target	UL97 kinase	<1 µM
O=C(O)c1cccc(O)c1	-	MIC	Mycobacterium tuberculosis	H37Rv	-	culture	-	>100 µg/mL
CSc1ccccc1-c1cncc(N2CCN(c3ccccn3)CC2)n1	-	IC50	Cytomegalovirus	-	-	target	UL97 kinase	<100 µM
COC(=O)/N=N/C(=O)OC	BACTEC	MIC bound	Mycobacterium tuberculosis	H37Rv	-	culture	-	>12.5 µg/mL
CSc1ccc(-c2cncc(N3CCN(c4ccc(F)cc4F)CC3)n2)cc1	-	IC50	Cytomegalovirus	-	-	target	UL97 kinase	<10 µM
Fc1ccc(N2CCCCC2)c(NC(=S)c2ccncc2)c1	kinase activity	inhibition	-	-	10 µM	host protein	PKCalpha	21%
COc1ccc2ncccc2c1	-	MIC	Mycobacterium tuberculosis	H37Rv	-	culture	-	>100 µg/mL

The first 2 rows once more:

compound	method	measure	agent	strain	dose	kind	target	result
CC(C)(C)c1ccc(-c2cncc(N3CCN(c4cnccn4)CC3)n2)cc1	-	inhibition	Cytomegalovirus	-	10 µM	target	UL97 kinase	>15%
CC(C)=NNC(=O)CNc1cccc(C(F)(F)F)c1	BACTEC	MIC bound	Mycobacterium tuberculosis	H37Rv	-	culture	-	>12.5 µg/mL

Percent inhibition refers to the dose given; in toxicity tests it is the harm to the cells. ICn is the concentration giving n% inhibition. MIC bound: limit read from a one-dose screen. Neighbouring rows are from separate reports.